1 compound from paper PMC9021288 (Nature Communications, 2022) can be followed below.

Amino acid sequences for entries named in this document (tags omitted). Residues count along the entry.
UniProt C6KTB4, 1-997: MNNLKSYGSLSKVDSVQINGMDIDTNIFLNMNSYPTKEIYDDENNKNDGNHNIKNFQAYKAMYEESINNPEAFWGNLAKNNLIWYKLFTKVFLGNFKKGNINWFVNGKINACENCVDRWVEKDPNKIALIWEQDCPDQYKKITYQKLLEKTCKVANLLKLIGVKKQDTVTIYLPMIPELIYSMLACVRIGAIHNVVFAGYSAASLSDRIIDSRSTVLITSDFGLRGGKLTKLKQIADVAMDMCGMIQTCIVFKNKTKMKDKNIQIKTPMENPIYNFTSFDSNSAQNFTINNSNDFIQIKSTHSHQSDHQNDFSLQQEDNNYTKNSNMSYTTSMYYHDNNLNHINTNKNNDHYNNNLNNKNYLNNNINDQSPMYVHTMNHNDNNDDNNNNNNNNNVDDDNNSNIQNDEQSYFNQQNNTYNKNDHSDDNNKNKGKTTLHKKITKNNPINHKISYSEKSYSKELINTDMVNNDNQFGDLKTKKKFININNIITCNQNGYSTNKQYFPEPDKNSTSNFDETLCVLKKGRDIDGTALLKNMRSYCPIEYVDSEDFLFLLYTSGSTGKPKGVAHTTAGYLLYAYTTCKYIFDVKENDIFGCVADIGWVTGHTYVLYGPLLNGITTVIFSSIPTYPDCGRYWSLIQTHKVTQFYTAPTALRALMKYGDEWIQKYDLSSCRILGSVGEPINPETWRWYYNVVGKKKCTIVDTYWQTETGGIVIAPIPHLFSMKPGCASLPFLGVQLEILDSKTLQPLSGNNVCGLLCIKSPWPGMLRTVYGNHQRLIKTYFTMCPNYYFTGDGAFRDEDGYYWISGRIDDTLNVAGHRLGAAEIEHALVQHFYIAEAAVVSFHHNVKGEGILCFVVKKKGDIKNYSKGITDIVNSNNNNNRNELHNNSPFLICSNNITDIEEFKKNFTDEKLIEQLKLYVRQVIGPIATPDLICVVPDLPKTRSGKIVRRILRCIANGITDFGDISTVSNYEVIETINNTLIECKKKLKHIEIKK

The test addresses wild-type (T648) AcAS (Plasmodium falciparum, UniProt C6KTB4). The experiment in a line: AcAS activity assay (14C-acetate), wild-type. The format is biochemical. The note with it: log concentration (M) -5.0655; listed as CoA-iPanAm.

Each structure is given as a SMILES string. Certain results were filed several times, with different values. This list holds those alone. There may be further records. Values that stand side by side appear to be repeats (runs, samples, wells or individuals).

Regarding `C[C@@H](CNC(=O)[C@H](O)C(C)(C)COP(=O)(O)OP(=O)(O)OC[C@H]1O[C@@H](n2cnc3c(N)ncnc32)[C@H](O)[C@@H]1OP(=O)(O)O)NC(=O)c1cc(F)c(F)cc1F`, the “AcAS activity normalized to no drug control” value was 5.721 and 2.463.
